# Reference: PubChem BioAssay AID624099 (ICCB-Longwood, 2012)
# Screen: 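Host factors E2 relies on to silence an HPV18 LCR reporter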 (primary screen)
# System: human C33A cervical carcinoma cells (HPV-negative) stably expressing BPV1 E2 and an HPV18 LCR luciferase reporter
# Knock-down reagent: siRNA pool against human genes, 40 nM
# Duration: 72 h
# Measurement: 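HPV18 LCR reporter light per well, converted to plate-wise z-scores that exclude control wells, and averaged over triplicate plates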
# Reading the numbers: mean z-score and z-score: higher = stronger reporter signal, weaker E2 silencing
# Active means: 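Hit if mean z-score reaches 2 and two or more of three replicate z-scores also reach 2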
# Shown is a random part of about 21,000 reagents. Over the whole deposit, 497 (2.4%) are marked active. 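Higher z means weaker E2 silencing; only reporter increases were scored, and knock-downs that hurt cell survival may mask genuine repressor factors.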 A number with no mark means an inactive call. The numbers tell different reagents against one gene apart.
target,pool no.,mean z-score,"z-score, replicate A","z-score, replicate B","z-score, replicate C"
LOC389425 (retired record) (GeneID 389425),1,-4.3,-4.24,-4.43,-4.24
UGT2B7 (GeneID 7364),1,-0.73,-0.75,-0.43,-1.02
IFI44L (GeneID 10964),1,1.18,1.25,1.25,1.03
SLC39A9 (GeneID 55334),1,0.49,0.37,0.44,0.65
GPR15 (GeneID 2838),1,-0.49,-0.53,-0.66,-0.27
SPNS2 (GeneID 124976),1,0.77,0.66,0.85,0.8
RNF135 (GeneID 84282),1,0.85,0.9,0.53,1.12
SPG11 (GeneID 80208),1,0.23,-0.23,0.71,0.23
SCYL2 (GeneID 55681),1,1.91,1.99,1.97,1.77
EEF1G (GeneID 1937),1,0.87,0.9,0.89,0.82
MCM9 (GeneID 254394),1,-0.12,-0.16,0.32,-0.52
TBC1D23 (GeneID 55773),1,-1.65,-1.72,-1.48,-1.74
LINC00547 (GeneID 400121),1,0.86,0.79,0.7,1.09
ADAMTSL3 (GeneID 57188),1,-0.48,-0.39,-0.47,-0.58
WNT3 (GeneID 7473),1,0.68,0.63,0.58,0.84
FAM163A (GeneID 148753),1,0.83,0.59,1.13,0.76
DNAH2 (GeneID 146754),1,-0.68,-0.78,-0.34,-0.91
DNAH2 (GeneID 146754),2,0.09,0.59,-0.44,0.12
MIS12 (GeneID 79003),1,0.22,0.38,0.19,0.09
TRIM40 (GeneID 135644),1,-1.77,-1.56,-1.9,-1.85
KCP (GeneID 375616),1,-0.62,-0.25,-0.73,-0.9
RTN4RL2 (GeneID 349667),1,-1.34,-1.45,-1.2,-1.37
NEU1 (GeneID 4758),1,-0.04,-0.01,0.14,-0.24
LOC389039 (retired record) (GeneID 389039),1,-0.71,-0.8,-1.2,-0.13
LOC399900 (GeneID 399900),1,-0.37,-0.18,-0.57,-0.37

Records listed so far whose target name starts with M or m (2):
target,pool no.,mean z-score,"z-score, replicate A","z-score, replicate B","z-score, replicate C"
MCM9 (GeneID 254394),1,-0.12,-0.16,0.32,-0.52
MIS12 (GeneID 79003),1,0.22,0.38,0.19,0.09

Next records follow.
target,pool no.,mean z-score,"z-score, replicate A","z-score, replicate B","z-score, replicate C"
LILRA5 (GeneID 353514),1,0.51,0.62,0.92,-0.03
LOC402414 (retired record) (GeneID 402414),1,-0.58,-0.91,-0.43,-0.4
COPS8 (GeneID 10920),1,0.53,0.3,0.36,0.92
SERPINB13 (GeneID 5275),1,0.76,0.84,0.53,0.91
TRABD2B (GeneID 388630),1,0.65,0.5,0.65,0.79
SLC36A1 (GeneID 206358),1,1.56,1.25,1.87,2.51
PRELID3A (GeneID 10650),1,-0.58,-0.56,-0.79,-0.4
PLET1 (GeneID 349633),1,1.29,1.34,1.67,0.85
PPP4R4 (GeneID 57718),1,-1.2,-1.33,-1.17,-1.1
ELANE (GeneID 1991),1,-0.52,-0.74,-0.65,-0.18
MTMR2 (GeneID 8898),1,0.94,1.09,0.8,0.94
FAM124B (GeneID 79843),1,-0.37,-0.66,-0.1,-0.35
USP21 (GeneID 27005),1,-0.02,-0.06,0.15,-0.13
FBXO39 (GeneID 162517),1,0.75,0.26,0.77,1.21
PITRM1 (GeneID 10531),1,0.38,0.45,0.36,0.34
SLC11A1 (GeneID 6556),1,0.09,0.37,-0.21,0.1
IGSF8 (GeneID 93185),1,0.41,0.36,0.42,0.45
CPB2 (GeneID 1361),1,-1.31,-1.44,-1.27,-1.22
NAP1L5 (GeneID 266812),1,1.45,1.08,1.79,1.46
CENPE (GeneID 1062),1,0.08,0.09,-0.03,0.19
BRD2 (GeneID 6046),1,-2.71,-2.4,-2.84,-2.89
CRYBB1 (GeneID 1414),1,-0.34,-0.37,-0.18,-0.47
SHISAL2A (GeneID 348378),1,1.3,1.59,1.06,1.25
ANTXR1 (GeneID 84168),1,-0.2,-0.24,-0.11,-0.25
LAMTOR1 (GeneID 55004),1,0.23,0.23,0.14,0.31
AFTPH (GeneID 54812),1,-0.12,0.03,0,-0.37
ERCC5 (GeneID 2073),1,0.47,0.41,0.71,0.29
IKZF5 (GeneID 64376),1,-0.09,0.33,0,-0.59
MEGF11 (GeneID 84465),1,0.14,0.44,-0.02,0
GGH (GeneID 8836),1,1.03,1.16,0.95,0.98
SACK1C (GeneID 128876),1,1.03,0.59,1.47,1.03
OSBPL8 (GeneID 114882),1,-1.74,-1.56,-1.65,-2.01
